Measured values from several laboratories, pooled; numbers as filed in NIAID ChemDB.

Common to all: whole-cell or culture tests

Zones are inhibition diameters on agar. MIC50, MIC90 and the like: level of inhibition, or share of isolates inhibited. Rows are shuffled and stem from different studies. ECn: concentration that inhibits the pathogen or its effect by n%. Two numbers with a dash give a range or band. Inhibition is in % at the dose shown (toxicity tests: loss of growth or viability). An empty or dashed field is not shown.

smiles	cell line	read-out	changes	dose	organism	setting	strain or isolate	read by	result
O=C(NN=CC1C(c2ccccc2)=Nc2ccc(Cl)cc21)N1c2ccccc2C=Cc2ccccc21		zone		750 µg/mL	Aspergillus terreus		MTCC-1782	agar diffusion	9 mm
CCN(CC)c1ccc(OCCCCCOc2cccc(NC(N)=S)c2)cc1	Ava5-EG(delta4AB)SEAP	EC50			Hepatitis C virus			reporter gene / fluorescence	0.001–1 µM
O=C(Nc1ccc(C(F)(F)F)cc1)Nc1ccc(C(F)(F)F)cc1		MIC			Escherichia coli		ES142		>300 µM
Cc1cc(CCCOc2c(C)cc(-c3noc(C(F)(F)F)n3)cc2C)on1	OHIO HELA-I	EC50			Rhinovirus		Isolate 9	cytopathic effect / visual reading	0.22 µg/mL
Nc1ncnc2c1ncn2[C@H]1CC[C@H](O)[C@@H]1O	CV-1	EC50			Measles virus			cytopathic effect	<0.1 µg/mL
O=C1[C@@H](Cc2ccc(O)cc2)NC(=S)N1c1ccccc1	MT-4	inhibition		1 µg/mL	HIV-2			cytopathic effect / XTT	0%
CCO/N=C/c1ccc(OCCC2CCN(c3ccc(Cl)nn3)CC2)cc1	KB	EC50			Rhinovirus		106F (LDL receptor group 30)	neutral red	0.052 µM
O=C(Nc1cccc(C2=NCCN2)c1)Nc1cccc(C2=NCCN2)c1		MIC			Escherichia coli		ES142		>300 µM
C[C@@H]1Cn2c(c(C(=O)NCc3ccccc3-n3cccn3)n(-c3ccc(OC4CC4)cc3)c2=O)CN1C(=O)c1ccc(Br)c(Cl)c1	HepG2.117	EC50			Hepatitis B virus			PCR	0.1–0.5 µM
CCn1nc(Cc2ccccc2)c2c1C(=O)c1c(OC(C)=O)c(C)c(C)c(OC(C)=O)c1C2=O		inhibition		10 µM	Cryptosporidium parvum				<10%
CCOC(=O)c1cnc(NCCCCNc2ccnc3cc(Cl)ccc23)nc1C		MIC99			Cryptococcus gattii		23/10993		5.7 µg/mL
CCCc1cc(=O)oc2c3c(c4c(c12)OC(C)(C)[C@H](O)[C@@H]4O)O[C@H](C)[C@@H](C)[C@@H]3O	CV-1	EC50			Measles virus		SA	cytopathic effect	5 µg/mL
O=C(NCCc1ccccc1)Nc1cncc(Cl)n1	MT-4	inhibition		10 µg/mL	HIV-2			cytopathic effect / XTT	16–60%
Nc1nc2c(ncn2COCCO)c(=O)[nH]1	HFF	EC50			Herpes simplex virus 2		V68697 (acyclovir-resistant)	cytopathic effect	>50 µg/mL
O=C(NCc1ccc(Cl)cc1)c1c[nH]c2c(F)cccc2c1=O		EC50			Varicella zoster virus		NAG	plaque count	0.6 µM
C[C@H](NC(=O)c1c2n(c(=O)n1-c1ccc(OC3CC3)cc1)CCN(C(=O)c1ccc(Br)c(Cl)c1)C2)c1ccc(OC(F)F)cc1F	HepG2.117	EC50			Hepatitis B virus			PCR	0.1–0.5 µM
CCCC(CCC)C(NC(C)=O)C1C(N=C(N)N)CC(C(=O)O)C1O	MDCK	EC50			Influenza A virus		Influenza A/Shandong/09/93 (H3N2)		0.23 µM
Cn1ncc2c1C(=O)c1c(Cl)ccc(O)c1C2=O		inhibition		50 µM	Cryptosporidium parvum				99%
Oc1ccccc1N=Cc1ccc(O)c(O)c1O		MIC99			Cryptococcus neoformans		ATCC 62066		5.7 µg/mL
O=c1[nH]c(=O)n([C@H]2C[C@H](O)[C@@H](CO)O2)cc1/C=C/Br	HELF	inhibition		0.001 µg/mL	Varicella zoster virus		Kawaguchi	plaque count	0%
O=C(NNc1ncc(C(F)(F)F)cn1)Nc1cc(C(F)(F)F)cc(C(F)(F)F)c1		MIC			Escherichia coli		ES142		>300 µM
O=C(O)P(=O)(O)O	HFF	inhibition		200 µM	Cytomegalovirus		AD169	hybridisation	75.4%
C1=C[C@@H](c2ncc(-c3ccc(-c4ccc(-c5cnc([C@@H]6C=CCN6)[nH]5)cc4)cc3)[nH]2)NC1	Luc1a.1.19	EC50			Hepatitis C virus		1a	luciferase	6.5 µM
COc1ccc(-n2c(C(=O)NCc3ccccc3)c3n(c2=O)CCN(C(=O)c2cc4c(C)cccc4[nH]2)C3)cc1	HepG2.117	EC50			Hepatitis B virus			PCR	0.5–5 µM
OC[C@H]1O[C@@H](n2cnc3c(SCc4ccc(Cl)cc4Cl)ncnc32)[C@H](O)[C@@H]1O		inhibition		25 µM	Toxoplasma gondii		RH adenosine kinase-deficient		0%
CN1C(=O)[C@@H](Cc2ccccc2)NC1=S	MT-4	inhibition		10 µg/mL	HIV-2			RT activity	1%
CCn1nc(C)c2c1C(=O)c1ccccc1C2=O		inhibition		50 µM	Cryptosporidium parvum				<10%
O=C(NCc1ccccc1)c1c2n(c(=O)n1-c1ccc(-n3cccn3)cc1)CCN(C(=O)c1ccc(Br)c(Cl)c1)C2	HepG2.117	EC50			Hepatitis B virus			PCR	0.1–0.5 µM
Oc1ccccc1C=Nc1ccccc1O		MIC99			Cryptococcus neoformans		C-3-1		4 µg/mL
O=C(CCC(=O)Nc1cc(C(F)(F)F)cc(C(F)(F)F)c1)Nc1cc(C(F)(F)F)cc(C(F)(F)F)c1		MIC			Klebsiella pneumoniae		KL21		>300 µM
Cc1cn([C@@H]2O[C@H](CO)[C@@H](O)[C@@H]2O)c(=O)[nH]c1=O	HELF	inhibition		0.01 µg/mL	Varicella zoster virus		KANNO	plaque count	34%
O=C1Nc2ccc(Cl)cc2[C@@](/C=C/C2CC2)(C(F)(F)F)N1		EC90	RT-K103N V108I		HIV-1				~0.095 µM
O=S(=O)([O-])c1ccc2c(S(=O)(=O)[O-])cc(S(=O)(=O)[O-])cc2c1	Human embryonic lung cells	inhibition		5 µg/mL	Adenovirus		TYPE 3	cytopathic effect	0%
O=C(NN1C(=O)CSC1C1C(c2ccccc2)=Nc2ccc(Cl)cc21)N1c2ccccc2C=Cc2ccccc21		zone		750 µg/mL	Aspergillus oryzae		MTCC-3567	agar diffusion	11 mm
Nc1ncnc2c1ncn2[C@@H]1C=C[C@@H](O)[C@H]1O	CV-1	EC50			Measles virus		SA	cytopathic effect	50 µg/mL
O=C(O)c1ccc(S(=O)(=O)[O-])cc1C(=O)O	Human embryonic lung cells	inhibition		50 µg/mL	Adenovirus		TYPE 3	cytopathic effect	0%
C[C@@H](c1ncncc1F)[C@](O)(Cn1cncn1)c1ccc(F)cc1F		MIC50			Cryptococcus gattii		VG IIb	broth dilution	0.063 µg/mL
C/C=C/C/C=C/CCC(=O)[C@H]1O[C@H]1C(N)=O		MIC			Escherichia coli		CDM5 (TLM-R)		20 µg/mL
NC(=S)Nc1cccc(OCCCCCOc2ccc(-c3ccc(Cl)cc3)cc2)c1	Ava5-EG(delta4AB)SEAP	EC50			Hepatitis C virus			reporter gene / fluorescence	0.001–1 µM
CO[C@H]1/C=C/O[C@@]2(C)Oc3c(C)c(O)c4c(O)c(c(/C=N/N5CCN(C6CCCC6)CC5)c(O)c4c3C2=O)NC(=O)/C(C)=C\C=C\[C@H](C)[C@H](O)[C@@H](C)[C@@H](O)[C@@H](C)[C@H](OC(C)=O)[C@@H]1C		MIC			Mycobacterium avium intracellulare		9-Feb		0.5 µg/mL
Cc1ccc2oc(=S)n(-c3ccc(Br)cc3)c(=S)c2c1		MIC			Mycobacterium kansasii	21 d	6509/96		4 µM
Oc1cccc(C=Nc2ccccc2O)c1		MIC99			Cryptococcus neoformans		F-10		8 µg/mL
COc1cc(-c2ccc(N=Nc3ccc4c(S(=O)(=O)O)cc(S(=O)(=O)O)c(N)c4c3O)c(OC)c2)ccc1N=Nc1ccc2c(S(=O)(=O)O)cc(S(=O)(=O)O)c(N)c2c1O	Human amnion AV3 cells	inhibition		5 µg/mL	Adenovirus		TYPE 3	cytopathic effect	0%
Fc1ccc2oc(=S)n(-c3ccc(Br)cc3)c(=S)c2c1		MIC			Mycobacterium kansasii	21 d	6509/96		4 µM
Cc1ccc(C(=O)Nc2ccc(S(=O)(=O)O)c3cc(S(=O)(=O)O)cc(S(=O)(=O)O)c23)cc1NC(=O)c1cccc(NC(=O)Nc2cccc(C(=O)Nc3cc(C(=O)Nc4ccc(S(=O)(=O)O)c5cc(S(=O)(=O)O)cc(S(=O)(=O)O)c45)ccc3C)c2)c1	Human embryonic lung cells	inhibition		10 µg/mL	Adenovirus		TYPE 3	cytopathic effect	0%
O=C1Nc2ccc(F)c(F)c2[C@@](C#CC2CC2)(C(F)(F)F)N1		EC90	RT-K103N P225H		HIV-1				~0.035 µM
Oc1ccccc1N=Cc1cccc(O)c1O		MIC99			Cryptococcus neoformans		27JF		5.7 µg/mL
Cc1ccc2c(c1)C(=O)c1c(cnn1C)C2=O		inhibition		10 µM	Cryptosporidium parvum				10%
Nc1nc2c(ncn2COC(CO)CO)c(=O)[nH]1		EC95			Human cytomegalovirus		C4 (D341E)	virus yield	1.8 µM
C[C@@H](c1ncncc1F)[C@](O)(Cn1cncn1)c1ccc(F)cc1F		MIC			Cryptococcus gattii		CBS 11542	broth dilution	1 µg/mL
C=CCc1ccc(OC)c(OC)c1		MIC90			Candida albicans		3001	turbidity	350 µg/mL
CN[C@H]1CC[C@@H](c2ccc(Cl)c(Cl)c2)c2ccccc21		MIC90			Cryptococcus neoformans		93BC2-52	broth dilution	3 µg/mL
Cn1ncc2c1C(=O)c1cccc(Br)c1C2=O		inhibition		50 µM	Cryptosporidium parvum				95%
Nc1nc2c(ncn2COCCO)c(=O)[nH]1	HELF	inhibition		1 µg/mL	Varicella zoster virus		YS	plaque count	50%
N#Cc1ccc(CSc2ncnc3c2ncn3[C@@H]2O[C@H](CO)[C@@H](O)[C@H]2O)cc1		inhibition		25 µM	Toxoplasma gondii		RH adenosine kinase-deficient		0%
CC(=O)N1C(=O)[C@@H](Cc2ccccc2)NC1=S	MT-4	inhibition		10 µg/mL	HIV-2			cytopathic effect / XTT	0%
CCOC(=O)c1c(C)nc(NCCCCNc2ccnc3cc(Cl)ccc23)nc1-c1ccccc1[N+](=O)[O-]		MIC99			Cryptococcus gattii		547/OTTI-97-PI-10		16 µg/mL
O=C(NCCc1ccccc1)Nc1nc2c(Cl)cccc2s1	MT-4	inhibition		10 µg/mL	HIV-2			RT activity	72%
CCCc1cc(=O)oc2cc(O)c(C(=O)CC)c(O)c12	CV-1	EC50			Measles virus		Chicago-1	cytopathic effect	1 µg/mL
O=S(=O)([O-])c1cc(NS(=O)(=O)c2ccccc2)c2c(S(=O)(=O)[O-])cc(S(=O)(=O)[O-])cc2c1	Human amnion AV3 cells	inhibition		10 µg/mL	Rhinovirus			cytopathic effect	0%
NC(=S)Nc1cccc(OCCCCCOc2cccc(Oc3ccccc3)c2)c1	Ava5-EG(delta4AB)SEAP	EC50			Hepatitis C virus			reporter gene / fluorescence	0.001–1 µM
O=C(Nc1ccc2c(O)c(N=Nc3ccc(N=Nc4ccc(S(=O)(=O)O)cc4)cc3)c(S(=O)(=O)O)cc2c1)c1ccccc1	Human embryonic lung cells	inhibition		50 µg/mL	Rhinovirus			cytopathic effect	100%
Cc1ccc2oc(=S)n(-c3ccccc3)c(=S)c2c1		MIC			Mycobacterium kansasii	21 d	My 235/80		4 µM
O=c1[nH]c(=O)n([C@@H]2O[C@H](CO)[C@@H](O)[C@@H]2O)cc1/C=C/Br	HELF	inhibition		0.001 µg/mL	Varicella zoster virus		KANNO	plaque count	100%
O=C(NCCc1ccccc1)Nc1nc2ccccc2s1	MT-4	inhibition		1 µg/mL	HIV-2			cytopathic effect / XTT	99%
Nc1ncnc2c1ncn2[C@@H]1CC[C@@H](O)[C@H]1O	CV-1	EC50			Measles virus		CC	neutral red	0.05 µg/mL
CC(=O)N[C@H]1[C@H]([C@H](O)[C@H](O)CO)OC(C(=O)O)=C[C@@H]1N=C(N)N	MDCK	EC50			Influenza A virus		Influenza A/Washington/05/96 (H3N2)		0.2 µM
CC(CCOc1ccccc1)CCOc1cccc(NC(N)=S)c1	Ava5-EG(delta4AB)SEAP	EC50			Hepatitis C virus			reporter gene / fluorescence	0.001–1 µM
CCCc1cc(=O)oc2cc(OS(=O)(=O)c3ccc(C)cc3)cc(O)c12	CV-1	EC50			Measles virus		SA	cytopathic effect	0.2 µg/mL
CCC(CC)[C@H](NC(C)=O)[C@@H]1[C@H](O)[C@@H](C(=O)O)C[C@H]1N=C(N)N	MDCK	EC50			Influenza A virus		Influenza A/Victoria/3/75 (H3N2)	visual reading	0.09 µM
CCCCCCCCNC(=S)Nc1cccc(OCCCCCc2ccccc2)c1	Ava5-EG(delta4AB)SEAP	EC50			Hepatitis C virus			reporter gene / fluorescence	0.001–1 µM
Fc1ccc(-n2c(=S)oc3ccc(F)cc3c2=S)cc1		MIC			Mycobacterium kansasii	14 d	My 235/80		8 µM
CCc1cn([C@@H]2O[C@H](CO)[C@@H](O)[C@@H]2O)c(=O)[nH]c1=O	HELF	inhibition		10 µg/mL	Varicella zoster virus		Kawaguchi	plaque count	0%
CCCCCCCCCCCCOC(=O)[C@]1(O)C[C@@H](O)[C@@H](O)[C@H](OC(=O)/C=C/c2ccc(O)c(O)c2)C1		MIC80			Aspergillus nomius		SLV 549	absorbance	>1500 µg/mL
NC(=NC1CCCC1)c1ccc(-c2ccc(-c3ccc(C(N)=NC4CCCC4)cc3)o2)cc1		MFC			Candida albicans		Isolate 3028 fluconazole-resistant		50 µg/mL
Nc1ncnc2c1ncn2[C@@H]1C[C@H](Sc2ccccc2)[C@@H](O)[C@H]1O	CV-1	EC50			Measles virus			neutral red	>100 µg/mL
O=C(NN=CC1C(c2ccccc2)=Nc2ccccc21)N1c2ccccc2C=Cc2ccccc21		zone		500 µg/mL	Aspergillus oryzae		MTCC-3567	agar diffusion	11 mm
O=C1[C@@H](Cc2ccccc2)NC(=S)N1c1ccccc1	MT-4	inhibition		100 µg/mL	HIV-2			RT activity	95%
CCCC(CCC)C(NC(C)=O)C1CC(C(=O)O)CC1N=C(N)N	MDCK	EC50			Influenza A virus		H1N1 A/PR/8/34		0.7 µM
Nc1ncnc2c1ncn2[C@@H]1C[C@H](N)[C@@H](O)[C@H]1O	CV-1	EC50			Measles virus		CC	neutral red	10 µg/mL
CCCc1cc(=O)oc2cc(OC(=O)C(C)(C)C)c3c(c12)OC(C)(C)C=C3	CV-1	EC50			Measles virus		NS2	cytopathic effect	0.2 µg/mL